A mixed list of measured activities; the numbers were collected in NIAID ChemDB.

All rows: whole-cell or culture tests; species: Herpes simplex virus 1; cells: VERO; read-out: EC50

Conditions beyond the fields shown may differ between rows. ECn: concentration that inhibits the pathogen or its effect by n%.

Cc1cn([C@@H]2O[C@H](CO)[C@@H](O)[C@@H]2O)c(=O)[nH]c1=O ; strain or isolate: 77 ; read by: plaque count ; result: 4.2 µM
O=C(OC[C@H]1O[C@@H](OC(=O)c2cc(O)c(O)c(O)c2)[C@H](O)[C@@H](OC(=O)c2cc(O)c(O)c(O)c2)[C@@H]1O)c1cc(O)c(O)c(O)c1 ; strain or isolate: F ; read by: plaque count ; result: 0.043 µg/mL
Nc1nc2c(ncn2COCCO)c(=O)[nH]1 ; strain or isolate: K1 ; read by: cytopathic effect ; result: 0.41 µM
Nc1nc(=O)n([C@@H]2O[C@H](CO)[C@@H](O)[C@@H]2F)cc1I ; strain or isolate: F-FIAU-C1 ; read by: plaque count ; result: 11 µM
C=Cc1cn(OCCO)c(=O)[nH]c1=O ; strain or isolate: KOSSB (TK-) ; read by: plaque count ; result: >50 µg/mL
Nc1nc2c(ncn2CCCCO)c(=O)[nH]1 ; strain or isolate: C915 TK- ; read by: plaque count ; result: >200 µM
O=c1ccn([C@@H]2O[C@H](CO)[C@@H](O)[C@@H]2F)c(=O)[nH]1 ; strain or isolate: F-FIAU-C1 ; read by: plaque count ; result: >200 µM
O=C(O)CP(=O)(O)O ; strain or isolate: 7401H ; read by: plaque count ; result: 24.4 µg/mL
CSc1nsc(-c2ccccn2)c1C#N ; strain or isolate: F strain ; read by: plaque count ; result: >50 µM
Cn1cc(C(=O)NCc2ccc(Cl)cc2)c(=O)c2cc(CN3CCOCC3)ccc21 ; strain or isolate: KOS ; read by: plaque count ; result: 3.3 µM
O=C(O)P(=O)(O)O ; strain or isolate: F-AMAU-C2 ; read by: plaque count ; result: 30 µM
CC1(C)C=C2[C@H]3CC[C@@H]4[C@@]5(C)CCC(=O)C(C)(C)[C@@H]5CC[C@@]4(C)[C@]3(C)CC[C@@]2(C(=O)O)CC1 ; strain or isolate: B2006 (TK-) ; read by: plaque count ; result: 2 µg/mL
O=c1[nH]c(=O)n([C@@H]2O[C@H](CO)[C@@H](O)[C@@H]2O)cc1/C=C/Br ; strain or isolate: V3 ; read by: plaque count ; result: >1000 µM
CCCCC(C)(C)[C@H](O)/C=C/[C@H]1C=CC(=O)[C@@H]1CCCCCCC(=O)O ; strain or isolate: H129 ; read by: hybridisation ; result: 5.6 µg/mL
Nc1ncnc2c1ncn2[C@@H]1C[C@H](CO)[C@@H](O)[C@@H]1O ; strain or isolate: F ; read by: plaque count ; result: 30.3 µM
C/C1=C\C=C\C2(C)C=C(CO[C@H]3O[C@H](CO)[C@H](O)[C@H](O)[C@H]3O)C(C)CC23OC([O-])C(C3=O)C(O)/C=C/C2(C)C=C(CO)C(C)CC23OC([O-])C(C3=O)C(O)/C(C)=C/C=C/C2C=C(CO[C@H]3O[C@H](CO)[C@H](O)[C@H](O)[C@H]3O)C(C)CC23OC([O-])C(C3=O)C(O)/C=C/C2(C)C=C(C=O)C(C)CC23OC([O-])C(C3=O)C1O ; strain or isolate: KOS ; read by: cytopathic effect ; result: 11 µg/mL
Nc1nc2c(ncn2CCC(CO)CO)c(=O)[nH]1 ; strain or isolate: K1R ; read by: cytopathic effect ; result: >800 µM
Nc1nc2c(ncn2CCC(O)CO)c(=O)[nH]1 ; strain or isolate: KJ502 ; read by: plaque count ; result: 11 µM
Cc1nc(N(C)C(=O)Cc2ccc(-c3ccccn3)cc2)sc1S(N)(=O)=O ; strain or isolate: KD2 ; read by: plaque count ; result: 0.04 µM
Nc1nc2c(ncn2COCCO)c(=O)[nH]1 ; strain or isolate: McKrae ; read by: plaque count ; result: 0.6 µM
Cn1cc(C(=O)NCc2ccc(Cl)cc2)c(=O)c2cc(/C=C\CO)cc(F)c21 ; strain or isolate: KOS ; read by: plaque count ; result: 2 µM
C/C1=C\C=C\C2(C)C=C(CO[C@H]3O[C@H](CO)[C@H](O)[C@H](O)[C@H]3O)C(C)CC23OC([O-])C(C3=O)C(O)/C=C/C2(C)C=C(CO)C(C)CC23OC([O-])C(C3=O)C(O)/C(C)=C/C=C/C2C=C(CO[C@H]3O[C@H](CO)[C@H](O)[C@H](O)[C@H]3O)C(C)CC23OC([O-])C(C3=O)C(O)/C=C/C2(C)C=C(CO)C(C)CC23OC([O-])C(C3=O)C1O ; strain or isolate: KOS ; read by: cytopathic effect ; result: 11 µg/mL
O=Cc1cn([C@@H]2O[C@H](CO)[C@@H](O)[C@@H]2O)c(=O)[nH]c1=O ; strain or isolate: 77 ; read by: plaque count ; result: 460 µM
Nc1nc2c(ncn2CC[C@H](O)CO)c(=O)[nH]1 ; strain or isolate: KJ502 ; read by: plaque count ; result: 12 µM
Nc1nc2c(ncn2COCCO)c(=O)[nH]1 ; strain or isolate: MGH 10 ; read by: plaque count ; result: 1 µM
CC(CC[C@@H](C)C1CCC2C3C[C@H](COS(=O)(=O)O)C4C[C@H](OS(=O)(=O)O)[C@@H](OS(=O)(=O)O)C[C@]4(C)C3CC[C@@]21C)C(C)(C)C.[Na+].[Na+].[Na+] ; strain or isolate: KOS ; read by: plaque count ; result: 5.63 µg/mL
C=Cc1cn([C@@H]2O[C@H](CO)[C@@H](O)[C@@H]2O)c(=O)[nH]c1=O ; strain or isolate: 77 ; read by: plaque count ; result: 3.2 µM
O=c1c2cc(Cl)ccc2[nH]c2cc(O)cc(O)c12 ; result: 83 µM
CSc1nsc(-c2cccc3ccccc23)c1C#N ; strain or isolate: F strain ; read by: plaque count ; result: >4 µM
Nc1nc(=O)n([C@@H]2O[C@H](CO)[C@@H](O)[C@@H]2F)cc1I ; strain or isolate: F ; read by: plaque count ; result: 0.3 µM
O=C(O)CP(=O)(O)O ; result: 50 µM
Nc1nc(N)c2c(ncn2[C@@H]2O[C@H](CO)[C@@H](O)[C@H]2O)n1 ; strain or isolate: HF ; read by: cytopathic effect ; result: 0.3 µg/mL
Nc1ncc2ncn(COC(CO)CO)c2n1 ; strain or isolate: F ; read by: plaque count ; result: >100 µM
NC[C@H]1O[C@@H](n2ccc(=O)[nH]c2=O)C[C@@H]1O ; read by: plaque count ; result: >100 µM
CCCCCCCCCCCC(=O)NC(C)(C)C(=O)N1C[C@@H](O)CC1C(=O)N[C@@H](CC(C)C)C(=O)N[C@H](C(=O)N[C@@H](CCC(N)=O)C(=O)N[C@H](CO)CC(C)C)C(C)C ; read by: cytopathic effect ; result: 2 µM
CSc1nsc(-c2ccccc2)c1C#N ; strain or isolate: F strain ; read by: plaque count ; result: >20 µM
Cn1cc(C(=O)NCc2ccc(Cl)cc2)c(=O)c2cc(CN3CCOCC3)ccc21 ; strain or isolate: DJL ; read by: plaque count ; result: 2.6 µM
[N-]=[N+]=NC[C@H]1O[C@@H](n2cc(Br)c(=O)[nH]c2=O)C[C@@H]1O ; read by: plaque count ; result: >100 µM
O=c1[nH]c(=O)n([C@@H]2O[C@H](CO)[C@@H](O)[C@@H]2F)cc1CO ; strain or isolate: F ; read by: plaque count ; result: 0.48 µM
Clc1ncnc2nc(-c3cscn3)[nH]c12 ; read by: plaque count ; result: >100 µg/mL
CCCN(CCC)S(=O)(=O)c1cccc(Nc2nc(Nc3cccc(S(=O)(=O)N(CCC)CCC)c3)nc(Nc3ccc(Nc4ccc(-c5ccc(Nc6ccc(Nc7nc(Nc8cccc(S(=O)(=O)N(CCC)CCC)c8)nc(Nc8cccc(S(=O)(=O)N(CCC)CCC)c8)n7)cc6S(=O)(=O)[O-])cc5S(=O)(=O)O)c(S(=O)(=O)O)c4)c(S(=O)(=O)[O-])c3)n2)c1 ; strain or isolate: Patton ; read by: ELISA ; result: >25 µM
CNc1nc(N)nc2ncn([C@@H]3O[C@H](CO)[C@@H](O)[C@H]3O)c12 ; strain or isolate: HF ; read by: cytopathic effect ; result: 320 µg/mL
O=c1[nH]c(=O)n([C@H]2C[C@H](O)[C@@H](CO)O2)cc1/C=C/Br ; strain or isolate: 77 ; read by: plaque count ; result: 0.065 µM
CCCCCCCCCCCC(=O)NC(C)(C)C(=O)N1CCCC1C(=O)N[C@@H](CC(C)C)C(=O)N[C@H](C(=O)N[C@@H](CCC(N)=O)C(=O)N[C@H](CO)CC(C)C)C(C)C ; read by: cytopathic effect ; result: 3.1 µM
Nc1nc2c(ncn2COCCO)c(=O)[nH]1 ; strain or isolate: H129 ; read by: plaque count ; result: 0.2 µg/mL
C/C1=C\C=C\C2(C)C=C(CO)C(C)CC23OC([O-])C(C3=O)C(O)/C=C/C2(C)C=C(CO)C(C)CC23OC([O-])C(C3=O)C(O)/C(C)=C/C=C/C2C=C(CO)C(C)CC23OC([O-])C(C3=O)C(O)/C=C/C2(C)C=C(CO)C(C)CC23OC([O-])C(C3=O)C1O ; strain or isolate: KOS ; read by: cytopathic effect ; result: 20 µg/mL
Nc1ncnc2c1ncn2[C@@H]1C[C@H](CO)[C@@H](O)[C@@H]1O ; strain or isolate: H129 ; read by: plaque count ; result: 8.75 µg/mL
COc1cc2oc(-c3ccccc3)cc(=O)c2c(OC)c1OC ; strain or isolate: KOS ; read by: plaque count ; result: 5.8 µg/mL
CSc1nsc(-c2ccc(Cl)cc2)c1C#N ; strain or isolate: F strain ; read by: plaque count ; result: >5 µM
Nc1ccn([C@@H]2C[C@H](CO)[C@@H](O)[C@@H]2O)c(=O)n1 ; strain or isolate: HF ; read by: cytopathic effect ; result: 93 µg/mL
[N-]=[N+]=NC[C@H]1O[C@@H](n2cc(Cl)c(=O)[nH]c2=O)C[C@@H]1O ; read by: plaque count ; result: >100 µM
Nc1nc2c(ncn2CC[C@@H](O)CO)c(=O)[nH]1 ; strain or isolate: 7935-72 ; read by: plaque count ; result: 1 µM
Nc1nc2c(ncn2COCCOC(CO)CO)c(=O)[nH]1 ; strain or isolate: F ; read by: plaque count ; result: 7 µM
COCc1cn([C@H]2C[C@H](O)[C@@H](CO)O2)c(=O)nc1N ; strain or isolate: KOS ; read by: plaque count ; result: 26 µM
O=c1ccn([C@@H]2O[C@H](CO)[C@@H](O)[C@H]2O)c(=O)[nH]1 ; strain or isolate: V3 ; read by: plaque count ; result: >1000 µM
Nc1nc(N)c2c(nnn2[C@@H]2O[C@H](CO)[C@@H](O)[C@H]2O)n1 ; strain or isolate: HF ; read by: cytopathic effect ; result: 100 µg/mL